Anti-infective test results gathered from many reports (values: NIAID ChemDB through PubChem).

All rows: growth or infection tests; species: Aspergillus niger; endpoint: MIC

Rows are shuffled and stem from different studies.

{"SMILES": "CCc1nc([N+]#N)c(C(=O)N2CCCC2)[nH]1", "strain or isolate": "L32", "value": "200 µg/mL"}
{"SMILES": "O=C(NO)c1ccc(NC(=S)N/N=C/c2ccc(O)cc2)cc1", "read by": "agar diffusion", "value": "1.55 µM"}
{"SMILES": "CCCCc1nc([N+]#N)c(C(=O)N2CCCC2)[nH]1", "strain or isolate": "L32", "value": ">200 µg/mL"}
{"SMILES": "Cc1c(-c2ccccc2)c(=O)oc2ccc(-c3cc(-c4ccc(Cl)cc4)c4c(n3)-c3ccccc3CC4)cc12", "strain or isolate": "MTCC 282", "read by": "broth dilution / turbidity", "value": ">1000 µg/mL"}
{"SMILES": "COC(=O)[C@]1(C)CCC[C@]2(C)c3ccc(C(C)C)cc3C(=O)C[C@@H]12", "strain or isolate": "CGMCC3.316", "value": ">100 µg/mL"}
{"SMILES": "Cc1ccc(/C=N/NC(=S)Nc2ccc(C(=O)NO)cc2)cc1", "read by": "agar diffusion", "value": "1.11 µM"}
{"SMILES": "Cc1c(-c2ccccc2)c(=O)oc2ccc(-c3cc(-c4ccc(F)cc4)c4oc5ccccc5c4n3)cc12", "strain or isolate": "MTCC 282", "read by": "broth dilution / turbidity", "value": "250 µg/mL"}
{"SMILES": "O=C(O)c1ccc(NC(=S)N/N=C/c2ccc(OO)cc2)cc1", "read by": "agar diffusion", "value": "3.12 µM"}
{"SMILES": "N#[N+]c1nc(-c2ccc(Cl)cc2Cl)[nH]c1C(=O)N1CCCC1", "strain or isolate": "L32", "value": "100 µg/mL"}
{"SMILES": "COC(=O)[C@]1(C)CCC[C@]2(C)c3ccc(C(C)C)cc3-c3[nH]c4ccc(Cl)cc4c3C12", "strain or isolate": "CGMCC3.316", "value": ">100 µg/mL"}
{"SMILES": "COc1ccc(-c2cc(-c3ccc4oc(=O)c(-c5ccccc5)c(C)c4c3)nc3c2CCc2ccccc2-3)cc1", "strain or isolate": "MTCC 282", "read by": "broth dilution / turbidity", "value": "500 µg/mL"}
{"SMILES": "N#[N+]c1nc(-c2cccc(F)c2)[nH]c1C(=O)N1CCCC1", "strain or isolate": "L32", "value": "100 µg/mL"}
{"SMILES": "CN(C)c1ccc(/C=N/NC(=S)Nc2ccc(C(=O)O)cc2)cc1", "read by": "agar diffusion", "value": "1.68 µM"}
{"SMILES": "COc1ccc(-c2cc(-c3ccc4oc(=O)c(-c5ccccc5)c(C)c4c3)nc3c2CCc2ccccc2-3)cc1OC", "strain or isolate": "MTCC 282", "read by": "broth dilution / turbidity", "value": "1000 µg/mL"}
{"SMILES": "N#[N+]c1nc(-c2ccccc2F)[nH]c1C(=O)N1CCCC1", "strain or isolate": "L32", "value": ">200 µg/mL"}
{"SMILES": "COC(=O)[C@]1(C)CCC[C@]2(C)c3ccc(C(C)C)cc3-c3[nH]c4ccc(OC)cc4c3C12", "strain or isolate": "CGMCC3.316", "value": ">100 µg/mL"}
{"SMILES": "C/C(=N\\NC(=S)Nc1ccc(C(=O)O)cc1)c1ccc(Cl)cc1", "read by": "agar diffusion", "value": "2.84 µM"}
{"SMILES": "Cc1ccc(-c2cc(-c3ccc4oc(=O)c(-c5ccccc5)c(C)c4c3)nc3c2oc2ccccc23)cc1", "strain or isolate": "MTCC 282", "read by": "broth dilution / turbidity", "value": ">1000 µg/mL"}
{"SMILES": "COC(=O)[C@]1(C)CCC[C@]2(C)c3ccc(C(C)C)cc3-c3[nH]c4c(Br)cccc4c3C12", "strain or isolate": "CGMCC3.316", "value": ">100 µg/mL"}
{"SMILES": "Cc1nc([N+]#N)c(C(=O)N2CCCC2)[nH]1", "strain or isolate": "L32", "value": "100 µg/mL"}
{"SMILES": "Cc1ccc(/C(Cl)=N/NC(=S)Nc2ccc(C(=O)NO)cc2)cc1", "read by": "agar diffusion", "value": "1.67 µM"}

Repeating the final 2 entries:

Cc1nc([N+]#N)c(C(=O)N2CCCC2)[nH]1 ; strain or isolate: L32 ; value: 100 µg/mL
Cc1ccc(/C(Cl)=N/NC(=S)Nc2ccc(C(=O)NO)cc2)cc1 ; read by: agar diffusion ; value: 1.67 µM